Results of unrelated studies side by side (data: NIAID ChemDB).

Common to all: tests on isolated targets; agent: HIV-1; protein: Reverse transcriptase; read-out: IC50

An empty or dashed field is not shown. ICn is the concentration giving n% inhibition. a–b is a range or a potency band. Neighbouring rows are from separate reports.

SMILES | strain | changes | read by | conditions | result
CC(=O)Oc1c(OC(C)C(C)=O)ccc2c1C(=O)c1ccccc1C2=O |  | K103N |  |  | 100 µM
CCNc1nc(Nc2ccc(C#N)cc2F)nc(Oc2ccc3cccc(Br)c3c2)n1 |  |  | RT activity / fluorescence |  | 2.05 µM
CC(=O)O[C@H]1CC[C@@]2(C)[C@@H](CC[C@@]3(C)[C@H]2CC=C2[C@@H]([C@H](C)CC/C=C(\C)C(=O)O)CC[C@@]23C)C1(C)C |  |  | nucleotide incorporation / radiometric |  | 15.5 µg/mL
O=C(CSc1nnc(Br)n1-c1c(Cl)cc(C2CCC2)c2ccccc12)Nc1ccc(C(=O)O)cc1Cl |  | RT-Y188L | nucleotide incorporation / radiometric |  | 0.05–0.1 µM
CCN1C(=O)c2cncnc2N(CC)c2ccccc21 | IIIB |  | nucleotide incorporation / radiometric |  | ≥30 µM
CC(CNC(=S)Nc1nccs1)c1ccccc1 |  |  | nucleotide incorporation |  | >10 µM
C=CCOc1cc(NC(=S)c2ccsc2C)ccc1Cl |  |  | radiometric |  | 2.531 µM
CC(C)N1c2ccccc2N(c2ccccc2)C(=O)c2cnn(C)c21 | IIIB |  | nucleotide incorporation / radiometric |  | >30 µM
CCn1cc(C(=O)O)c(=O)c2cc(F)c(N3CCN(c4ccccc4OC)CC3)c(OC(F)F)c21 |  |  | nucleotide incorporation |  | >250 µM
O=C(O)CNC(=O)c1ccc(NC(=O)CSc2nnc(Br)n2-c2ccc(C3CC3)c3ccccc23)c(Cl)c1 |  |  | nucleotide incorporation / radiometric |  | <0.05 µM
CCn1c(C)c(C(=O)OC)c(C(=O)OC)c1Cc1ccccc1 | G910-6 |  |  |  | 0.74 µM
O=C(O)CCNC(=O)c1ccc(NC(=O)CSc2nnc(Br)n2-c2ccc(C3CC3)c3ccccc23)c(Cl)c1 |  |  | nucleotide incorporation / radiometric |  | <0.05 µM
Cc1ccc(CSc2cc(NC(=S)c3ccoc3C)ccc2Cl)cc1 |  |  | nucleotide incorporation |  | 8.546 µM
Cc1cc(C(=O)O)ccc1NC(=O)CSc1nnc(C(F)F)n1-c1ccc(C)c2c1CCCC2 |  |  | nucleotide incorporation / radiometric |  | <0.05 µM
COc1ccc2c(c1)N(C(=O)OC(C)C)[C@@H](CSC)C(=S)N2 |  | RT-W229Y | radiometric |  | 0.02 µM
CCN1c2ccccc2N(C)C(=O)c2cnc(SC)nc21 | IIIB |  | nucleotide incorporation / radiometric |  | >30 µM
C=c1c2ccccc2c(=C2CCN(C(=O)OC)CC2)c2ccccc12 |  |  | nucleotide incorporation |  | >100 µM
CCN1c2ncc(CCOc3ccc(NC(=O)c4ccc(Cl)nc4)cc3C)cc2C(=O)N(C)c2cccnc21 | IIIB | RT-K103N Y181C | nucleotide incorporation / radiometric |  | <0.05 µM
COC(=O)CCCC(=O)N1CCC(=C(c2cc(C)c(OC)c(C(=O)OC)c2)c2cc(C)c(OC)c(C(=O)OC)c2)CC1 |  |  | nucleotide incorporation |  | >100 µM
N#Cc1ccc(Nc2nc(N)nc(Oc3ccc4cccc(Cl)c4c3)n2)c(F)c1 |  |  | RT activity / fluorescence |  | 0.709 µM
Cc1c(Cc2ccccc2)nc(OC2CCCCC2)[nH]c1=O |  |  | nucleotide incorporation |  | 2.2 µM
CCN1c2ncccc2NC(=O)c2cc(CCOc3ccc(-c4ccc[n+]([O-])c4)cc3C)cnc21 | IIIB |  | nucleotide incorporation / radiometric |  | <0.05 µM
O=C(Nc1ccc(S(=O)(=O)O)c2cccc(S(=O)(=O)O)c12)c1ccc(C(=O)Nc2ccc(S(=O)(=O)O)c3cccc(S(=O)(=O)O)c23)cc1 |  |  | RT activity |  | >50 µM
CCN1c2ncc(CCOc3ccc(-c4cccc(C(=O)O)c4)cc3C)cc2C(=O)N(C)c2cccnc21 | IIIB |  | nucleotide incorporation / radiometric |  | <0.05 µM
N#Cc1ccc(Nc2nc(N)nc(Oc3ccc4cccc(Br)c4c3)n2)c(F)c1 |  |  | RT activity / fluorescence |  | 0.415 µM
CC(C)=CCN1Cc2cccc3[nH]c(=S)n(c23)C[C@@H]1C | D34 |  | radiometric |  | 4.9 µM
O=C(CCCCCCCCC(=O)Nc1ccc(S(=O)(=O)O)c2cccc(S(=O)(=O)O)c12)Nc1ccc(S(=O)(=O)O)c2cccc(S(=O)(=O)O)c12 |  |  | RT activity |  | ~50 µM
C=C(CO)[C@@H]1CC[C@]2(C)CC[C@]3(C)[C@H](CC[C@@H]4[C@@]5(C)CC[C@H](O)C(C)(C)[C@@H]5CC[C@]43C)[C@@H]12 |  |  | nucleotide incorporation |  | 4.5 µM
O=C(OCCN1C(=O)c2ccccc2C1=O)c1ccc(Cl)c(Cl)c1 |  |  | absorbance |  | 2000 µM
O=S(=O)(O)c1cccc2ccc(OS(=O)(=O)c3cccc4c(S(=O)(=O)Oc5ccc6cccc(S(=O)(=O)O)c6c5)cccc34)cc12 |  |  | RT activity |  | <50 µM
CC(=O)COc1ccc2c(c1OC(C)=O)C(=O)c1ccccc1C2=O |  |  |  |  | >100 µM
CC(C)=CCOc1cc(NC(=S)c2ccoc2C)ccc1Cl |  |  | nucleotide incorporation |  | 0.022 µM
CNc1nc(Nc2ccc(C#N)cc2F)nc(Oc2ccc3cccc(Cl)c3c2)n1 |  |  | RT activity / fluorescence |  | 0.802 µM
O=C(Oc1ccc2c(c1OC(=O)c1ccccc1)C(=O)c1ccccc1C2=O)c1ccccc1 |  |  |  |  | 12 µM
CO.COc1ccccc1CCNC(=S)[N-]c1ccccn1.COc1ccccc1CCNC(=S)[N-]c1ccccn1.[O]=[V+2] |  |  | radiometric |  | 0.87 µM
CNc1nc(Nc2ccc(C#N)cc2F)nc(Oc2ccc3cccc(Br)c3c2)n1 |  |  | RT activity / fluorescence |  | 0.36 µM
Nc1cc(OC[C@H]2CC[C@@H](COP(=O)([O-])OP(=O)([O-])OP(=O)([O-])O)O2)nc(N)n1 |  |  | nucleotide incorporation / radiometric | Mg2+ | >500 µM
CC1(C)CC[C@]2(C(=O)O)CC[C@]3(C)C(=CC[C@@H]4[C@@]5(C)CC[C@H](O)C(C)(C)[C@@H]5CC[C@]43C)[C@@H]2C1 |  |  | nucleotide incorporation |  | 3.1 µM
S=C(NCCc1ccccc1Cl)Nc1ccc(Br)cn1 |  |  | radiometric |  | 0.7 µM
CC(=O)C(C)Oc1ccc2c(c1OC(C)C(C)=O)C(=O)c1ccccc1C2=O |  |  |  |  | >100 µM
O=C(O[C@@H]1O[C@@H]2COC(=O)c3cc(O)c(O)c(O)c3-c3c(cc(O)c(O)c3O)C(=O)O[C@H]2[C@@H]2OC(=O)c3cc(O)c(O)c(O)c3-c3c(cc(O)c(O)c3O)C(=O)O[C@@H]12)c1cc(O)c(O)c(O)c1 | IIIB |  | RT activity |  | 20 µM
CC(=O)OC[C@]1(C)CC[C@]2(C)CC[C@]3(C)c4ccc5c(c4CC[C@@]3(C)[C@@H]2C1)CC[C@@H](OC(C)=O)C5(C)C |  |  | nucleotide incorporation |  | 3.3 µM
Cc1occc1C(=S)Nc1ccc(Cl)c(OCC(=O)OC(C)(C)C)c1 |  |  | nucleotide incorporation |  | 9.476 µM
CC(C)N1c2ccccc2N(C)C(=O)c2cnn(-c3ccccc3)c21 | IIIB |  | nucleotide incorporation / radiometric |  | >30 µM
CCC(C)Oc1nc(Cc2ccccc2)cc(=O)[nH]1 |  |  | nucleotide incorporation |  | 4.2 µM
O=C(O)c1cc(NS(=O)(=O)c2cccc3c(S(=O)(=O)Nc4cc(C(=O)O)c(O)c(S(=O)(=O)O)c4)cccc23)cc(S(=O)(=O)O)c1O |  |  | RT activity |  | ~50 µM
CCN1c2ncc(CCOc3ccc(-c4cocn4)cc3C)cc2C(=O)N(C)c2cccnc21 | IIIB |  | nucleotide incorporation / radiometric |  | <0.05 µM
O=C(CCCCCCCCC(=O)Nc1ccc(S(=O)(=O)O)c2ccccc12)Nc1ccc(S(=O)(=O)O)c2ccccc12 |  |  | RT activity |  | >50 µM
CC1(C)C=C2[C@H]3CC[C@@H]4[C@@]5(C)CC[C@H](O)C(C)(C)[C@@H]5CC[C@@]4(C)[C@]3(C)CC[C@@]2(C)CC1 |  |  | nucleotide incorporation |  | 45 µM
O=C(CCCCCCC(=O)Nc1ccc(S(=O)(=O)O)c2ccccc12)Nc1ccc(S(=O)(=O)O)c2ccccc12 |  |  | RT activity |  | >50 µM
CC(C)=CCC[C@@H](C)[C@@H]1CC[C@]2(C)C3=C(CC[C@@]12C)[C@@]1(C)CC[C@H](O)C(C)(C)[C@@H]1CC3 |  |  | nucleotide incorporation |  | 14 µM
Cn1ncc2c1S(=O)(=O)NC(=O)N2Cc1ccc(Cl)cc1 |  |  |  |  | 80 µM
CCOC(=O)CCNC(=O)c1ccc(NC(=O)CSc2nnc(Br)n2-c2ccc(CC)c3ccccc23)c(Cl)c1 |  | RT-Y188L | nucleotide incorporation / radiometric |  | 0.05–0.1 µM
CCN1c2ccccc2N(C)C(=O)c2cnn(-c3ccccc3)c21 | IIIB |  | nucleotide incorporation / radiometric |  | 30 µM
CNc1nc(Nc2ccc(C#N)cc2)nc(Oc2ccc3ccccc3c2)n1 |  |  | RT activity / fluorescence |  | 0.156 µM
C=C(C)[C@@H]1CCC2[C@]3(CC[C@]4(C)[C@@H]([C@H](C)CC/C=C(/C)C(=O)O)CC[C@@]24C)C[C@]13CCC(=O)O |  |  | RNase H |  | >424.9 µM
CCOC(=O)N1CCC(=C(c2cc(C)c(OC)c(C(=O)OC)c2)c2cc(C)c(OC)c(C(=O)OC)c2)CC1 |  |  | nucleotide incorporation |  | >100 µM
CC(C)C[C@H](NC(=O)c1ccc(NC(=O)CSc2nnc(Br)n2-c2ccc(C3CC3)c3ccccc23)c(Cl)c1)C(=O)O |  | RT-Y188L | nucleotide incorporation / radiometric |  | 0.05–0.1 µM
C=C(C)[C@@H]1CC[C@]2(C(=O)O)CC[C@]3(C)[C@H](CC[C@@H]4[C@@]5(C)CC[C@H](O)C(C)(C)[C@@H]5CC[C@]43C)[C@@H]12 |  |  | nucleotide incorporation |  | 7.9 µM
CCc1ccc(-n2c(SCC(=O)Nc3ccc(C(=O)O)cc3Cl)nnc2C(F)F)c2ccccc12 |  | RT-Y188L | nucleotide incorporation / radiometric |  | >0.1 µM
CC(=O)Oc1c(OCC(=O)c2ccc(-c3ccccc3)cc2)ccc2c1C(=O)c1ccccc1C2=O |  |  |  |  | 6 µM

Again, the opening 7 rows:

| SMILES | strain | changes | read by | conditions | result |
|---|---|---|---|---|---|
| CC(=O)Oc1c(OC(C)C(C)=O)ccc2c1C(=O)c1ccccc1C2=O |  | K103N |  |  | 100 µM |
| CCNc1nc(Nc2ccc(C#N)cc2F)nc(Oc2ccc3cccc(Br)c3c2)n1 |  |  | RT activity / fluorescence |  | 2.05 µM |
| CC(=O)O[C@H]1CC[C@@]2(C)[C@@H](CC[C@@]3(C)[C@H]2CC=C2[C@@H]([C@H](C)CC/C=C(\C)C(=O)O)CC[C@@]23C)C1(C)C |  |  | nucleotide incorporation / radiometric |  | 15.5 µg/mL |
| O=C(CSc1nnc(Br)n1-c1c(Cl)cc(C2CCC2)c2ccccc12)Nc1ccc(C(=O)O)cc1Cl |  | RT-Y188L | nucleotide incorporation / radiometric |  | 0.05–0.1 µM |
| CCN1C(=O)c2cncnc2N(CC)c2ccccc21 | IIIB |  | nucleotide incorporation / radiometric |  | ≥30 µM |
| CC(CNC(=S)Nc1nccs1)c1ccccc1 |  |  | nucleotide incorporation |  | >10 µM |
| C=CCOc1cc(NC(=S)c2ccsc2C)ccc1Cl |  |  | radiometric |  | 2.531 µM |